# Assay results: ChEMBL document CHEMBL5370591, “A Potent and Narrow-Spectrum Antibacterial against Clostridioides difficile Infection” (J Med Chem, 2023)
# Test: Selectivity ratio of IC50 for human THP-1 cells to MIC for Clostridium difficile ATCC 43255
smiles,measurement,value
Oc1ccc(-c2nc(-c3ccc(OC4CCCC4)cc3)no2)cc1,Ratio,9
